Where two headings read alike, the source gives them in different places.
Tests used:
[1] = target: HuPKGIα (Homo sapiens, UniProt Q13976); experiment: Kinase Glo enzymatic assay, human PKG; assay type: biochemical; settings: read-out: human PKG; Table 2
[2] = tested on: P. falciparum clone 3D7A; experiment: Whole cell parasite growth inhibition assay (LDH), WT parasites
[3] = tested on: TQ P.falciparum; experiment: Whole cell parasite growth inhibition assay, TQ parasites
[4] = tested on: P. falciparum (NF54 isolate) male gametocytes; experiment: Dual gamete activation assay, male (exflagellation); settings: read-out: male (gamete formation); male gametes, 48 h incubation
[5] = tested on: P. falciparum (NF54 isolate) female gametocytes; experiment: Dual gamete activation assay, female (Pfs25 expression); settings: read-out: female (gamete formation); female gametes, 48 h incubation
[6] = target: PKG (PF3D7_1436600) (Plasmodium falciparum, UniProt Q8I719); settings: for relative abundance, compound competition 20 uM: relative to vehicle control
[7] = target: PF3D7_1231400, PFL1515c (Plasmodium falciparum, UniProt Q8I5A6)
[8] = target: WT PfPKG (Plasmodium falciparum, UniProt Q8I719); settings: read-out: WT PfPKG
[9] = target: TQ PfPKG (PfPKG_T618Q) (Plasmodium falciparum, UniProt Q8I719, T618Q); settings: read-out: PfPKG_T618Q; Table 2, gatekeeper mutant
[10] = target: CDPK1 (Plasmodium falciparum, UniProt P62344)
[11] = target: NEK1 (Plasmodium falciparum, UniProt Q8I5D5); settings: maximum concentration 20 µM
[12] = target: CDPK4 (Plasmodium falciparum, UniProt Q8IBS5); settings: maximum concentration 20 µM
[13] = target: CK1 (Plasmodium falciparum, UniProt Q8IHZ9); settings: maximum concentration 20 µM
[14] = target: putative protein kinase Pf3D7_0926100 (Plasmodium falciparum, UniProt Q8I2P8); settings: maximum concentration 20 µM
[15] = read-out: WT P.falciparum 48h, 48h
[16] = read-out: WT P.falciparum 72h, 72h
[17] = read-out: whole cell 48 h, Table 2, 48 h
[18] = read-out: whole cell 72 h, Table 2, 72 h
[19] = read-out: TQ P.falciparum 48h, 48h
[20] = read-out: TQ P.falciparum 72h, 72h
[21] = 20 uM, relative to vehicle control

By UniProt entry, the sequences of proteins in these tests, tags left out. Residues count along the entry.
UniProt Q13976, whole entry: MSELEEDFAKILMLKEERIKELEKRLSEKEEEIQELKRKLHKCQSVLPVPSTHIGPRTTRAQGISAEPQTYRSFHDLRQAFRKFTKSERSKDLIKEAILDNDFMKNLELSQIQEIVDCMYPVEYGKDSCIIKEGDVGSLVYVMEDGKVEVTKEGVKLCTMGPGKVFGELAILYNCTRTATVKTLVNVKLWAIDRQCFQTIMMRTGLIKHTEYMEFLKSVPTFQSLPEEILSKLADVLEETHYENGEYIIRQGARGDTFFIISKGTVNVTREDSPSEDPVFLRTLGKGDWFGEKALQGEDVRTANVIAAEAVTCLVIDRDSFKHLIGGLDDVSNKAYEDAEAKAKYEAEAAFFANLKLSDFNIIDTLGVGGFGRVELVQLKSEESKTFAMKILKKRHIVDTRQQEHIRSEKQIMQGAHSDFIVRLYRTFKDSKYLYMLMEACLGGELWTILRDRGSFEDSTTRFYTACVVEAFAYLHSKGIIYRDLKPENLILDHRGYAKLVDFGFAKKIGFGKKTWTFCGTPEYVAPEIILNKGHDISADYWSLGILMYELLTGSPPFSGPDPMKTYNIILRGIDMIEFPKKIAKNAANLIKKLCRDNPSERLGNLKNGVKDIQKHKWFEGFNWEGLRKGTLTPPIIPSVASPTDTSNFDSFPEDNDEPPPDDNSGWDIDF
UniProt Q8I719, whole entry: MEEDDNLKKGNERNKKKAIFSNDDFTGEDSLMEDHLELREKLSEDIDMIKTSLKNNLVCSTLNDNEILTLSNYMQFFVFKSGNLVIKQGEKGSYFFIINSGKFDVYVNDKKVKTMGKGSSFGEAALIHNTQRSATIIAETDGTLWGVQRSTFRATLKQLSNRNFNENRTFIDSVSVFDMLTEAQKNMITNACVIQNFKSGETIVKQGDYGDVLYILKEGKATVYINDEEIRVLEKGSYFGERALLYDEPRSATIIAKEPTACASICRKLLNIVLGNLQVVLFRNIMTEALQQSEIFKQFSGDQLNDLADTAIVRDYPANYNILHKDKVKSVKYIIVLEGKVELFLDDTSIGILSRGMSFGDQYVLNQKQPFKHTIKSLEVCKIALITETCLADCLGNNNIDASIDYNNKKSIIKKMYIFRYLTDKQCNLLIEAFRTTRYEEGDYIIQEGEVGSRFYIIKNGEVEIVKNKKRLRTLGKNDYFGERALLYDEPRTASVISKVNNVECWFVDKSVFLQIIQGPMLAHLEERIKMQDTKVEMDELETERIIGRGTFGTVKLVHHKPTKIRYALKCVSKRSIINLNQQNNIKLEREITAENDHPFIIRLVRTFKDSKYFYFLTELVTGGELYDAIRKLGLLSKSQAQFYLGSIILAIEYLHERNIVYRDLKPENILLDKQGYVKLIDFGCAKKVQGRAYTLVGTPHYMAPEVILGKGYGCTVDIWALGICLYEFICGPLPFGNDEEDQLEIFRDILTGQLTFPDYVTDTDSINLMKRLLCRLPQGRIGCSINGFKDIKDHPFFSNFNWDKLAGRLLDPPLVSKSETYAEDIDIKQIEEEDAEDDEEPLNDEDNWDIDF
UniProt Q8I719, whole entry T618Q: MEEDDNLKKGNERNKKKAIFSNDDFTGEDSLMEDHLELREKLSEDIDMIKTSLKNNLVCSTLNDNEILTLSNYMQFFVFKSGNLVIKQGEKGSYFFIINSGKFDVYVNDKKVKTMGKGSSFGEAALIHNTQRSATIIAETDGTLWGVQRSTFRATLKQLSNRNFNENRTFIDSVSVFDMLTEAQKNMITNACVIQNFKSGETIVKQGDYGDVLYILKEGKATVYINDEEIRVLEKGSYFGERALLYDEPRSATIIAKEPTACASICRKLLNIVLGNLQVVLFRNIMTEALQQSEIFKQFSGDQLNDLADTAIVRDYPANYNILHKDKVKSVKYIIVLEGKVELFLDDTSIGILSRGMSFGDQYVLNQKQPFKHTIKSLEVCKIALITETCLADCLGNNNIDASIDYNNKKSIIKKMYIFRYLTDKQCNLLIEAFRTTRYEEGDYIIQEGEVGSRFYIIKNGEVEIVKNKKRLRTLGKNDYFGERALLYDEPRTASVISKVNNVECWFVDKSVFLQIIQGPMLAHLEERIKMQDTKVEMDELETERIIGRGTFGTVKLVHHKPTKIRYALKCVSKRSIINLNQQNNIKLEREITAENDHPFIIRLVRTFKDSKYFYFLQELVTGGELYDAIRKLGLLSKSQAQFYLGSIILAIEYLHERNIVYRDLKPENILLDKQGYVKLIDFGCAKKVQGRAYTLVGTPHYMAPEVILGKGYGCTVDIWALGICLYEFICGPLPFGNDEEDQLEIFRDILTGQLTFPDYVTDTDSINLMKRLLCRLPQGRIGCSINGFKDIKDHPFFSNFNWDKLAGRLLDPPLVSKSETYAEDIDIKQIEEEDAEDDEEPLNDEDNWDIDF
UniProt Q8I5A6, 1-1944: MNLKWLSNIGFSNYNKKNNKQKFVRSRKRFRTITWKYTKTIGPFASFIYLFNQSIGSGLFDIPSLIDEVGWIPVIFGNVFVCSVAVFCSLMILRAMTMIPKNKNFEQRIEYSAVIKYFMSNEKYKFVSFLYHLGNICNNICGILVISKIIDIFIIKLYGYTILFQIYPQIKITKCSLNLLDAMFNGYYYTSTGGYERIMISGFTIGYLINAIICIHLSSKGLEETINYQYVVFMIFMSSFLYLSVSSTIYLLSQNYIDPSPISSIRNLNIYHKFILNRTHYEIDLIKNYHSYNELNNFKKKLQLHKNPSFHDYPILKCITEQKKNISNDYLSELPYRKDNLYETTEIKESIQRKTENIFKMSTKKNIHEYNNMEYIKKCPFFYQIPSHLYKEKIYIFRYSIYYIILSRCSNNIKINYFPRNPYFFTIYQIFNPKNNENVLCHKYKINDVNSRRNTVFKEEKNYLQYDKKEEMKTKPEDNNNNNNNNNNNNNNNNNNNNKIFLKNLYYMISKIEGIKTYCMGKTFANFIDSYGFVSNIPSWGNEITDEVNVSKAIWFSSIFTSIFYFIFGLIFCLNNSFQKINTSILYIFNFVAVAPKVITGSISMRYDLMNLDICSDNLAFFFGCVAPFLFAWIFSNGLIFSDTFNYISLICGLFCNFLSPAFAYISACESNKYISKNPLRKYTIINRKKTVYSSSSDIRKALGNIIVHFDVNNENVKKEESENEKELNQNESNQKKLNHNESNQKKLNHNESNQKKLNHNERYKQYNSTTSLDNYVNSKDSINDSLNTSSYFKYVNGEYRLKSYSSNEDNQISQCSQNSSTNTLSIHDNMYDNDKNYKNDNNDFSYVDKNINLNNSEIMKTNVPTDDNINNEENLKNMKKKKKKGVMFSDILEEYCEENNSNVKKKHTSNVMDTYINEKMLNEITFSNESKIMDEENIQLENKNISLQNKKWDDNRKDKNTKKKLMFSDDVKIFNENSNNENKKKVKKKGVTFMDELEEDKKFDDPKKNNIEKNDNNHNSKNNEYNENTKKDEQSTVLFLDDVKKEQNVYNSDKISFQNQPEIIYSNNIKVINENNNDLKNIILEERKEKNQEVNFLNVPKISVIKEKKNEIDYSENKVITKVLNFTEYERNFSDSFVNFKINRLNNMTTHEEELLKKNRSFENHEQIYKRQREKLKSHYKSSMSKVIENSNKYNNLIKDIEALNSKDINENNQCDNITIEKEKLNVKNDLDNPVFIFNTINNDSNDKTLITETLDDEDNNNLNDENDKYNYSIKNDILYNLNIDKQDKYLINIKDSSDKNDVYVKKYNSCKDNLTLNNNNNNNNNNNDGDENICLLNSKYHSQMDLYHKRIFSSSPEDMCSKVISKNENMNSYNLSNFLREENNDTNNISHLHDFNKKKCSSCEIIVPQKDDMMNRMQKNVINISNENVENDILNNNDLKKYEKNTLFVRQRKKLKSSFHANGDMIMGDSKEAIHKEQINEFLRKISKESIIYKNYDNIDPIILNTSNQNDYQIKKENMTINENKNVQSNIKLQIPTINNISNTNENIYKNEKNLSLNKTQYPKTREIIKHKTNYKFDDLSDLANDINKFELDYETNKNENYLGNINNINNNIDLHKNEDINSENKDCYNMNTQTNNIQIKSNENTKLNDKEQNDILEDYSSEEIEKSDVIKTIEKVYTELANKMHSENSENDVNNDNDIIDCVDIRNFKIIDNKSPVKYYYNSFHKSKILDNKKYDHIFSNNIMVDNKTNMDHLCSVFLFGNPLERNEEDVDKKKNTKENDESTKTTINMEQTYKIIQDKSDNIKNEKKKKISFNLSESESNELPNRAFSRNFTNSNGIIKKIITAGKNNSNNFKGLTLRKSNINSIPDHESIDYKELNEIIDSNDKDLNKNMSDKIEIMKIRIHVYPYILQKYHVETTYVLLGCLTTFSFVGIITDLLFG
UniProt P62344, whole entry: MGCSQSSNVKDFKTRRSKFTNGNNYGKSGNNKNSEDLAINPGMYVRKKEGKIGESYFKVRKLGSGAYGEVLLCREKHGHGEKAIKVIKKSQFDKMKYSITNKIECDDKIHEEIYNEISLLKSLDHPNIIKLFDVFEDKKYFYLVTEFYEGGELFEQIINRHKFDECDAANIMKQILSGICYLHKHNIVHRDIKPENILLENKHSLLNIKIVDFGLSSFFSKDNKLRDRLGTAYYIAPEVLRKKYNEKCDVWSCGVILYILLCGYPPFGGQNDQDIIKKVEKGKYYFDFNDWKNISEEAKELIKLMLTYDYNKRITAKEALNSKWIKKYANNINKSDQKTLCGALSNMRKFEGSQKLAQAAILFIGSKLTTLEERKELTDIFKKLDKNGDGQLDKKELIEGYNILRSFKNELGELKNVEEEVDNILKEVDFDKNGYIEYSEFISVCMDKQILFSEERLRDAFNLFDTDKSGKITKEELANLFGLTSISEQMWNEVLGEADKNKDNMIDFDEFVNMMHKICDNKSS
UniProt Q8I5D5, 1-1057: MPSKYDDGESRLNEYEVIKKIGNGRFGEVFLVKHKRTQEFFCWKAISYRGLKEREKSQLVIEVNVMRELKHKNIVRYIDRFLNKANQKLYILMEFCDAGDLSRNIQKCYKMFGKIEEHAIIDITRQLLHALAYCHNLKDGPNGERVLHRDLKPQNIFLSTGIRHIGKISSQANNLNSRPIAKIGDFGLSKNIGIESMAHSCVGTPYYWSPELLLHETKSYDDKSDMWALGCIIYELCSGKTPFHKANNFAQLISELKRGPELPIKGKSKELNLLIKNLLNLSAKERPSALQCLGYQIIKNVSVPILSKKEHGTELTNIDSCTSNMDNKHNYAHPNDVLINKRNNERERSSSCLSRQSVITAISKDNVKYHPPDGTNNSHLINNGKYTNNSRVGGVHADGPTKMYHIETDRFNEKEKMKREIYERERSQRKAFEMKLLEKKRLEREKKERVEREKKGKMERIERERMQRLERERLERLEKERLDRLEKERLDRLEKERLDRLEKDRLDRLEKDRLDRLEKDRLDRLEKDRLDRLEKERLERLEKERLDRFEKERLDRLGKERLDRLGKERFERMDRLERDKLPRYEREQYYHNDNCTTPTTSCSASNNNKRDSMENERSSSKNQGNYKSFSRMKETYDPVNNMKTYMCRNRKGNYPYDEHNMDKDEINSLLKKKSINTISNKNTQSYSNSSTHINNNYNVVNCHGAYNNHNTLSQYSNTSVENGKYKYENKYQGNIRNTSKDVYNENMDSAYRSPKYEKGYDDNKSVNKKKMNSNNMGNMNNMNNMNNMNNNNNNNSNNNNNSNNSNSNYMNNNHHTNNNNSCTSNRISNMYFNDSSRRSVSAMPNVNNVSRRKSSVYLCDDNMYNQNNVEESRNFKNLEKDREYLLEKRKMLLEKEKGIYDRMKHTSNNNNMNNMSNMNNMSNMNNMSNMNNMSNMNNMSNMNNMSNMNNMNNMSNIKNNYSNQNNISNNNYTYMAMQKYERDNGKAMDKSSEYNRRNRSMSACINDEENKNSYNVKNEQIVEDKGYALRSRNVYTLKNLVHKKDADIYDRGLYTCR
UniProt Q8IBS5, whole entry: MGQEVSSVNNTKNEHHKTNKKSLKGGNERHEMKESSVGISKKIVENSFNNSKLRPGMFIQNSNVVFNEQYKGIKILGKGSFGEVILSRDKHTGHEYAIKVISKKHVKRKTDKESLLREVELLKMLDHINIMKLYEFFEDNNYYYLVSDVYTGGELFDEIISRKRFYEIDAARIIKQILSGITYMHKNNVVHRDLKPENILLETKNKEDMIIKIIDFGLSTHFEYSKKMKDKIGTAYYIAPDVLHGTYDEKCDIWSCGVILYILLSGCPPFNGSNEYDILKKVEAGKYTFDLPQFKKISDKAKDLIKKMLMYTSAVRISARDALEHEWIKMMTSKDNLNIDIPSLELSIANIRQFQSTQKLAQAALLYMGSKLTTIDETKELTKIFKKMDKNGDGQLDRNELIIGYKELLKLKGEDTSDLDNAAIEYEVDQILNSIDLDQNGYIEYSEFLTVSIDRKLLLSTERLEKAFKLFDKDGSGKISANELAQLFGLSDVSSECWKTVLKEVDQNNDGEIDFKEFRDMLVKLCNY

Compound | IC50 [1] [nM] | EC50 [2, 15] [nM] | EC50 [2, 16] [nM] | EC50 [2, 17] [nM] | EC50 [2, 18] [nM] | EC50 [3, 19] [nM] | EC50 [3, 20] [nM] | relative abundance, compound competition 0.08 uM [6] | relative abundance, compound competition 0.74 uM [6] | relative abundance, compound competition 2.22 uM [6] | relative abundance, compound competition 6.67 uM [6] | relative abundance, compound competition 20 uM [6] | relative abundance, compound competition 0.25 uM [6] | IC50 ([8]; Table 2) [nM] | IC50 [9] [nM] | other results
Nc1nccc(-c2sc(C3CCNCC3)nc2-c2cccc(NS(=O)(=O)c3ccoc3)c2F)n1 | > 1000 | 184 | 135 | 180 | 140 | > 5000 | > 5000 | 0.0164 | 0.0108 | 0.0124 | 0.0107 | 0.0123 | 0.012 | 0.9 | > 1000 | EC50 [4]: 2000 nM; EC50 [5]: 2400 nM; relative abundance, compound competition 0.08 uM ([7]; 0.08 uM): 0.05; relative abundance, compound competition 0.74 uM ([7]; 0.74 uM): 0.00253; relative abundance, compound competition 2.22 uM ([7]; 2.22 uM): 0.00341; relative abundance, compound competition 6.67 uM ([7]; 6.67 uM): 0.0213; relative abundance, compound competition 20 uM [7, 21]: 0.00607; relative abundance, compound competition 0.25 uM ([7]; […]): 0.0229; IC50 ([8]; Supplementary Table 2): 0.93 nM
Nc1nccc(-c2sc(N3CCNCC3)nc2-c2cccc(NS(=O)(=O)c3ccoc3)c2Cl)n1 | > 1000 | 3400 | 2940 | 3400 | 2900 | > 5000 | > 5000 | 0.0181 | 0.0119 | 0.0128 | 0.01 | 0.01 | 0.0106 | 1.1 | > 1000 | pIC50 (Kinobeads competition) [10]: 7.05; relative abundance, compound competition 0.08 uM ([10]; 0.08 uM): 0.52; relative abundance, compound competition 0.74 uM ([10]; 0.74 uM): 0.15; relative abundance, compound competition 2.22 uM ([10]; 2.22 uM): 0.10; relative abundance, compound competition 6.67 uM ([10]; 6.67 uM): 0.0371; relative abundance, compound competition 20 uM [10, 21]: 0.0282; relative abundance, compound competition 0.25 uM ([10]; […]): 0.33; IC50 ([10]; read-out: IC50 (Kinobeads competition)): 90 nM; NEK1 affected (competed) on Kinobeads [11]: not; CDPK4 affected (competed) on Kinobeads [12]: not; CK1 affected (competed) on Kinobeads [13]: not; Pf3D7_0926100 affected (competed) on Kinobeads [14]: not

Reference: PMC6504873, “High-throughput screening of the Plasmodium falciparum cGMP-dependent protein kinase identified a thiazole scaffold which kills erythrocytic and sexual stage parasites” (Scientific Reports, 2019)
